Data source: PubChem BioAssay AID1224833 (University of Georgia, 2016)
The deposit covers about 12,000 reagents; below is a random part of them. Of all reagents, about 5,600 (46%) got an active call. 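Active calls cover z-scores past 1 in both directions, so they include lowered as well as raised rotavirus replication.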 A number with no mark means an inactive call.

Aim: 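Human genes whose knock-down alters rotavirus replication in monkey cells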 (primary screen)
System: monkey MA104 kidney cells
Knock-down reagent: siRNA pool against human genes, 50 nM
Timing: 48 h knock-down before infection; read 24 h after infection
Treatment: infection with rotavirus strain RV3 two days after transfection; infectious dose for this stage not given
Read-out: 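Rotavirus antigen per well by fluorescent immunoassay, normalised to non-targeting control wells on each plate and given as a standard z-score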
Reading the numbers: z-score vs non-targeting control: higher = more rotavirus replication than with non-targeting control
Hit rule: In these data the active calls have z-score vs non-targeting control at about -1 or lower, or at about 1 or higher
Meaning of the calls: active = z-score beyond 1 either way; inactive = z-score within 1 of zero

| target | PubChem SID | z-score vs non-targeting control |
| --- | --- | --- |
| SLC35A1 | SID329577238 | -1.97 (active) |
| IFRD1 | SID329574112 | -0.763 |
| SLC10A6 | SID329584141 | -0.347 |
| CCDC167 | SID329583107 | 0.762 |
| PLXNC1 | SID329576996 | -0.544 |
| MYO6 | SID329574535 | -0.745 |
| RUSC1-AS1 | SID329583906 | -1.31 (active) |
| MGAT1 | SID329574436 | 2.04 (active) |
| FAM114A1 | SID329582076 | 2.09 (active) |
| MTMR11 | SID329577417 | -0.28 |
| KRT28 | SID329583220 | -0.487 |
| IL37 | SID329578523 | 1.53 (active) |
| MAGED2 | SID329577425 | 0.147 |
| DNASE1L1 | SID329573422 | -1.21 (active) |
| NDUFB6 | SID329574575 | -0.353 |
| TOLLIP | SID329579287 | -0.852 |
| MATN4 | SID329576285 | 0.641 |
| ERAP1 | SID329579197 | 1.63 (active) |
| GOLGA2 | SID329573810 | -2.31 (active) |
| DENND3 | SID329577710 | -1.19 (active) |
| STMN4 | SID329581310 | 0.681 |
| TMEFF1 | SID329576183 | 0.0439 |
| OR2T34 | SID329582566 | -1.11 (active) |
| MRM3 | SID329579617 | -0.48 |
| ZNF333 | SID329581625 | 0.753 |
| SLC9A6 | SID329577184 | -2.3 (active) |
| CCL21 | SID329575266 | 1.07 (active) |
| RIC1 | SID329580309 | 0.976 |
| C20orf141 | SID329582619 | -0.205 |
| TPST2 | SID329576120 | -0.584 |
| LTB | SID329574337 | -1.06 (active) |
| PSTPIP1 | SID329576394 | 0.139 |
| PLAC9 | SID329583486 | 1.9 (active) |
| COLGALT2 | SID329577821 | 0.0454 |
| TRIM9 | SID329582199 | -0.111 |
| PTTG1IP | SID329572976 | -2.36 (active) |
| HPDL | SID329581739 | 1.83 (active) |
| ZNF587 | SID329581773 | 0.782 |
| CYB5B | SID329581253 | 0.752 |
| EGR2 | SID329573501 | -1.09 (active) |
| QTRT2 | SID329580959 | -0.121 |
| NDUFA9 | SID329574568 | 3.22 (active) |
| CXCL3 | SID329573872 | -1.81 (active) |
| RIC3 | SID329580915 | -0.721 |
| EVC2 | SID329582696 | 0.755 |

As entered above:
For “z-score vs non-targeting control”, MGAT1 [SID329574436] shows 2.04 (active)
Entry of LTB [SID329574337] under “z-score vs non-targeting control”: -1.06 (active)
Under “z-score vs non-targeting control”, DNASE1L1 [SID329573422] has -1.21 (active)
Value for TRIM9 [SID329582199] under “z-score vs non-targeting control”: -0.111
For “z-score vs non-targeting control”, OR2T34 [SID329582566] is entered as -1.11 (active)
Under “z-score vs non-targeting control”, CCDC167 [SID329583107] reads 0.762

The results go on.
| target | PubChem SID | z-score vs non-targeting control |
| --- | --- | --- |
| C1orf116 | SID329580840 | 2.52 (active) |
| XYLT1 | SID329580582 | -1.19 (active) |
| KPNB1 | SID329574228 | -0.675 |
| BMP6 | SID329572931 | -0.628 |
| PRORP | SID329576731 | 0.151 |
| LIN52 | SID329582025 | -1.59 (active) |
| N4BP1 | SID329576725 | -1.02 (active) |
| HMGB1 | SID329573980 | 0.542 |
| SPARC | SID329575456 | 0.0737 |
| CCNYL1 | SID329583036 | 1.25 (active) |
| CYP4B1 | SID329573345 | -0.516 |
| STEAP4 | SID329580957 | 1.87 (active) |
| OR2A12 | SID329584148 | -1.61 (active) |
| KRTAP20-1 | SID329584014 | -0.307 |
| ACE2 | SID329580445 | 1.16 (active) |
| RAB5IF | SID329579944 | 0.95 |
| AGAP4 | SID329582380 | -0.0717 |
| PRAM1 | SID329581520 | 0.342 |
| CHPF | SID329580904 | 0.729 |
| LYPLAL1 | SID329582563 | -1.58 (active) |
| CHCHD5 | SID329581569 | -0.843 |
| TPSAB1 | SID329575709 | -1.37 (active) |
| FUT6 | SID329573697 | 1.6 (active) |
| MRPL51 | SID329578988 | -2.22 (active) |
| ANGPTL5 | SID329583690 | 1.3 (active) |
| TCIM | SID329580072 | -0.698 |
| FAM167A | SID329581428 | -0.404 |
| NCKAP5 | SID329584127 | 0.354 |
| KIF21A | SID329579764 | 0.742 |
| ARFGAP2 | SID329581613 | 1.17 (active) |
